Compound potency records, mixed from different reports. Data source: NIAID ChemDB in PubChem.

Shared fields: whole-cell or culture tests; species: Mycobacterium tuberculosis

Percent inhibition refers to the dose given; in toxicity tests it is the harm to the cells. A number after MIC or MFC names an inhibition level or a share of isolates. An empty or dashed field is not shown. MIC bound comes from a single tested concentration. ECn: concentration that inhibits the pathogen or its effect by n%. Rows are shuffled and stem from different studies.

SMILES	endpoint	mutations	read by	dose	strain	value
COC(=O)/C(=C1\OC(=O)C(c2ccccc2)=C1O)c1ccccc1	MIC				H37Rv	64 µg/mL
N[C@@H]1CONC1=O	Median MIC				H37Rv	25 µg/mL
Fc1cc(Nc2ncnc3ccccc23)ccc1N1CCN(c2ccc(C(F)(F)F)cc2)CC1	MIC50		luminescence		H37Rv	>50 µM
COc1nc(N)c(NC2OCC(O)C(O)C2O)c(=O)n1C	MIC bound		BACTEC		H37Rv	>12.5 µg/mL
C=C(C)[C@@H]1CC[C@]2(CO)CC[C@]3(C)[C@H](CC[C@@H]4[C@@]5(C)CC[C@H](OC(C)=O)C(C)(C)[C@@H]5CC[C@]43C)[C@@H]12	MIC				H37Rv	>128 µg/mL
FC(F)(F)c1cccc(Oc2ccc(Nc3ncnc4ccccc34)cc2)n1	MIC50		luminescence		H37Rv	>20 µM
CNC(=S)N=Nc1c(O)[nH]c2ccccc12	MIC				H37Rv	>12.5 µg/mL
O=C(O)c1c2n(c3cc(F)c(N4CCC5(CC4)OCCO5)cc3c1=O)CS2	MIC		agar		H37Rv	0.99 µM
CC1(O)/C=C\C=C(\CO)C2CC(C)(C)C2(O)CC1	MIC bound		BACTEC		H37Rv	>12.5 µg/mL
CC1(C)[C@@H](Br)CC[C@]2(C)O[C@H]3COC(=O)C3=CC[C@@H]12	MIC				H37Rv	128 µg/mL
NC[C@@H]1O[C@H](O[C@H]2[C@@H](O)[C@H](O[C@@H]3[C@@H](O)[C@H](N)C[C@H](N)[C@H]3O[C@H]3O[C@H](CO)[C@@H](O)[C@H](O)[C@H]3N)O[C@@H]2CO)[C@H](N)[C@@H](O)[C@@H]1O	Mean MIC				H37Rv	2.75 µg/mL
Cc1cc2nc3ccc(N=Nc4ccc(N(C)C)cc4)cc3n(-c3ccccc3)c-2cc1=N	MIC				CS-R	0.2 µg/mL
O=S(=O)(c1ccc(OC(F)(F)F)cc1)C1CCN(c2ccc(Nc3ncnc4cc(F)ccc34)cc2)CC1	MIC50		luminescence		H37Rv	>50 µM
O=C(O)c1cn2c(n1)CN(c1cc3c(=O)c(C(=O)O)c4n(c3cc1F)CS4)CC2	MIC	MDR-TB	agar		H37Rv	0.22 µM
C=C[C@@](C)(Cl)[C@@H](Br)/C=C/[C@](C)(Cl)CBr	MIC				H37Rv	>128 µg/mL
C=CCn1c(-c2ccccc2)cs/c1=N\N=C1/C(=O)Nc2ccc(Br)cc21.O	inhibition			12 µg/mL	H37Rv	19%
CCCCCCCCCCCCCCNC1=C(Cl)C(=O)c2ccccc2C1=O	MIC bound		BACTEC		H37Rv	>12.5 µg/mL
c1ccc2c(NCCN3CCOCC3)ncnc2c1	MIC50		luminescence		H37Rv	>20 µM
NCCC[C@H](N)CC(=O)N[C@H]1CNC(=O)[C@H]([C@H]2C[C@H](O)NC(N)=N2)NC(=O)/C(=C/NC(N)=O)NC(=O)[C@H](CO)NC(=O)[C@H](CO)NC1=O	MIC				Isolate VIM-R/5	>40 µg/mL
FC(F)(F)c1ccc(Oc2ccc(Nc3ncnc4cc(Cl)ccc34)cc2)cc1	MIC50		luminescence		H37Rv	>20 µM
COc1cc(C=C(c2ccc(N(C)C)cc2)c2ccc(N(C)C)cc2)c2ccccc2c1OC	inhibition		resazurin	6.25 µg/mL	H37Rv	6%
O=C(O)c1c2n(c3cc(F)c(N4CCN(C(=O)c5ccco5)CC4)cc3c1=O)CS2	MIC		agar		H37Rv	3.63 µM
C=C(C)[C@@H]1CC[C@]2(COC(C)=O)CC[C@]3(C)[C@H](CC[C@@H]4[C@@]5(C)CC[C@H](OC(C)=O)C(C)(C)[C@@H]5CC[C@]43C)[C@@H]12	MIC				H37Rv	>128 µg/mL
COc1ccc(CCc2cc(OC)c3ccccc3n2)cc1OC	MIC				MT9	155 µg/mL
Cc1ccc(N2C(=O)C(C)S/C2=N/N=C2\C(=O)Nc3ccc(Br)cc32)cc1	inhibition			12 µg/mL	H37Rv	7%
COc1ccc(/C=C2/CC(c3ccc(Cl)cc3)=NNC2=O)cc1	MIC		resazurin		H37Rv	25 µg/mL
COc1ccccc1Nc1nc(-c2ccc([N+](=O)[O-])o2)cs1	inhibition		BACTEC	12.5 µg/mL	H37Rv	54%
CCCCCc1cc(OC)c2ccccc2n1	MIC				MT3	12.5 µg/mL
CCN1C(=O)C(C)S/C1=N/N=C1\C(=O)Nc2ccc(Br)cc21	EC50				H37Rv	>12 µg/mL
CC(C)c1c(O)ccc2c1CCC1C(C)(C)CCC[C@]21C	MIC				H37Rv	>12.5 µg/mL
CCOc1ccc2ccccc2c1C(=O)N[C@@H]1C(=O)N2[C@@H]1SC(C)(C)[C@@H]2C(=O)O	MIC				Isolate 2	>16 µg/mL
NC(=O)N/N=C1\CCC(O)CC1CC(=O)O	inhibition		BACTEC	12.5 µg/mL	H37Rv	-26%
NCCCC(N)CC(=O)NCC1NC(=O)C(CO)NC(=O)C(NC(=O)CC(N)CCCN)CNC(=O)C(C2CCN=C(N)N2)NC(=O)/C(=C/NC(N)=O)NC1=O	MIC				Isolate VIM-S	5 µg/mL
CO[C@@]1(NC(=O)Cc2cccs2)C(=O)N2C(C(=O)O)=C(COC(N)=O)CS[C@@H]21	MIC				Isolate 4	>16 µg/mL
FS(F)(F)(F)(F)c1ccc(CNc2ncnc3ccccc23)cc1	MIC50		luminescence		H37Rv	>40 µM
Nc1ccc(C(=O)O)c(O)c1	Median MIC				H37Ra	>2 µg/mL
COc1ccc(CCNc2ncnc3ccsc23)cc1	MIC50		luminescence		H37Rv	>50 µM
Cc1nc(SCC(=O)Nc2ccccc2)c2sc(=S)n(-c3ccccc3)c2n1	inhibition		BACTEC	12.5 µg/mL	H37Rv	68%
CS(=O)(=O)c1ccc(Oc2ccc(Nc3ncnc4cc(F)ccc34)cc2)cc1	MIC50		luminescence		H37Rv	>50 µM
CC1=CC[C@H](Br)C(C)(C)[C@]12CC[C@](C)(Cl)[C@@H](Br)C2	MIC				H37Rv	128 µg/mL
O=C1c2cscc2C(=O)c2cscc21	MIC		BACTEC		H37Rv	0.78 µg/mL
CC(C)c1cc2c(cc1O)[C@@]1(C)CCCC(C)(C)C1CC2	MIC				H37Rv	>12.5 µg/mL
CO[C@H]1/C=C/O[C@@]2(C)Oc3c(C)c(O)c4c(O)c(c5c(c4c3C2=O)NC2(CCN(CC(C)C)CC2)N=5)=NC(=O)/C(C)=C\C=C\[C@H](C)[C@H](O)[C@@H](C)[C@@H](O)[C@@H](C)[C@H](OC(C)=O)[C@@H]1C	Mean MIC				H37Rv	0.034 µg/mL
O=[N+]([O-])c1ccc2c(c1)-c1ccccc1C1=NCCN12	MIC bound		resazurin		H37Rv	>6.25 µg/mL
c1ccc2c(Nc3ccc(N4CCOCC4)cc3)ncnc2c1	MIC50		luminescence		H37Rv	>50 µM
COC(=O)C1=C(C(=O)OC)P2(c3ccccc3)(c3ccccc3)N(C)C(=S)N2C1(c1ccccc1)c1ccccc1	MIC bound		BACTEC		H37Rv	>12.5 µg/mL
COc1cc(/C=C2/CC(c3ccc(Cl)cc3)=NNC2=O)ccc1O	MIC		resazurin		H37Rv	6.25 µg/mL
O=C(O)c1c2n(c3cc([N+](=O)[O-])c(N4CCN(C(=O)c5ccco5)CC4)cc3c1=O)CS2	MIC	MDR-TB	agar		H37Rv	1.71 µM
COc1ccc(/C=C2/CC(c3ccc(C)cc3)=NNC2=O)cc1	MIC		resazurin		H37Rv	25 µg/mL
O=C(CSc1nc(-c2ccccc2)c(-c2ccccc2)[nH]1)N=Nc1c(O)[nH]c2ccc(Br)cc12	inhibition			12 µg/mL	H37Rv	18%
Cc1ccc2ncnc(NCCc3ccc(OC(F)(F)F)cc3)c2c1	MIC50		luminescence		H37Rv	>20 µM
NNC(=O)c1cnccn1	MIC bound		BACTEC		H37Rv	>12.5 µg/mL
O=C(O)[C@H]1/C(=C/CO)O[C@@H]2CC(=O)N21	MIC				Isolate 5	>16 µg/mL
CC(C)(O)[C@H]1CC[C@]2(C)[C@H]3CC[C@@H]4[C@@]5(C)CCCC(C)(C)[C@@H]5[C@@H](O)C[C@@]4(C)[C@]3(C)CC[C@@H]12	MIC				H37Rv	8 µg/mL
C/C=C1\C(=O)O[C@]23C=C[C@@H]4C(C(=O)OC)=CO[C@H](O[C@@H]12)[C@@H]43	MIC		MTT		MDR1 clinical isolate	2.2 µg/mL
NC[C@H]1O[C@H](O[C@H]2[C@H](O)[C@@H](O[C@H]3O[C@H](CO)[C@@H](O)[C@H](N)[C@H]3O)[C@H](N)C[C@@H]2N)[C@H](O)[C@@H](O)[C@@H]1O	Mean MIC				H37Ra	2.81 µg/mL
CCNC(=S)N=Nc1c(O)[nH]c2ccccc12	MIC				H37Rv	>12.5 µg/mL
CC(=O)O[C@H]1C[C@@]2(C)[C@@H](C[C@@H](O)[C@H]3[C@@]4(C)CC[C@@H](O)[C@@H](C)[C@@H]4CC[C@@]32C)/C1=C(\CCC=C(C)C)C(=O)O	Mean MIC				H37Rv	12 µg/mL
CC(C)(C)OC(=O)NC1C2CN(c3cc4c(=O)c(C(=O)O)c5n(c4cc3F)CS5)CC21	MIC	MDR-TB	agar		H37Rv	0.42 µM
CN[C@@H]1[C@@H](O)[C@@H](O[C@@H]2[C@@H](O)[C@H](O[C@H]3O[C@H](CN)CC[C@H]3N)[C@@H](N)C[C@H]2N)OC[C@]1(C)O	Mean MIC				H37Ra	7 µg/mL
NS(=O)(=O)c1cc(C(=O)O)c(NCc2ccco2)c([N+](=O)[O-])c1NCc1ccco1	MIC bound		BACTEC		H37Rv	>12.5 µg/mL
FC(F)(F)c1ccc(Oc2ccc(Nc3ncnc4nc[nH]c34)cc2)cc1	MIC50		luminescence		H37Rv	>20 µM
O=C1CN(/N=C/c2ccc([N+](=O)[O-])o2)C(=O)N1	MIC		BACTEC		H37Rv	≥12.5 µg/mL
CN[C@@H]1[C@H](O[C@H]2[C@H](O[C@H]3[C@H](O)[C@@H](O)[C@H](N=C(N)N)[C@@H](O)[C@@H]3N=C(N)N)O[C@@H](C)[C@]2(O)C=O)O[C@@H](CO)[C@H](O)[C@H]1O	Mean MIC				H37Ra	0.94 µg/mL
CO[C@H]1/C=C/O[C@@]2(C)Oc3c(C)c(O)c4c(c3C2=O)C(=O)C(CO)=C(NC(=O)/C(C)=C\C=C\[C@H](C)[C@H](O)[C@@H](C)[C@@H](O)[C@@H](C)[C@H](OC(C)=O)[C@@H]1C)C4=O	inhibition		BACTEC	12.5 µg/mL	H37Rv	99%
Fc1ccc2c(Nc3ccc(Oc4ccc(OC(F)(F)F)cc4)cc3)ncnc2c1	MIC50		luminescence		H37Rv	>20 µM
COc1ccc(N2CCN(c3c4c(nc5ccccc35)CCCCC4)CC2)cc1	MIC bound		resazurin		H37Rv	>6.25 µg/mL
Fc1ccc(N2CCN(c3ccc(Nc4ncnc5ccccc45)cc3)CC2)cc1	MIC50		luminescence		H37Rv	>50 µM
Cc1ccc(C2=NNC(=O)/C(=C\c3ccc(O)cc3)C2)cc1	MIC		resazurin		H37Rv	25 µg/mL
O=C(O)c1cn2c(n1)CN(c1cc3c(=O)c(C(=O)O)c4n(c3cc1[N+](=O)[O-])CS4)CC2	MIC		agar		H37Rv	0.2 µM
Clc1ccc(Oc2ccc(Nc3ncnc4ccccc34)cc2)cc1Cl	MIC50		luminescence		H37Rv	>20 µM
O=C(n1c(=O)n(-c2ccc(Cl)cc2)c(=O)n1C(=O)C(Cl)(Cl)Cl)C(Cl)(Cl)Cl	MIC bound		BACTEC		H37Rv	>12.5 µg/mL
COc1ccc2c(NCCc3ccc(OC(F)(F)F)cc3)ncnc2c1	MIC50		luminescence		H37Rv	>20 µM
COc1ccc(/C=C2\N=C(c3ccccc3)OC2=O)c(OC)c1C	MIC		BACTEC		H37Rv	>12.5 µg/mL
COc1ccc2c(Nc3ccc(Oc4ccc(C(F)(F)F)cc4)cc3)ncnc2c1	MIC50		luminescence		H37Rv	>20 µM
CCN(CC)CCNC(=O)c1nn(C)c(=S)[nH]c1=O	inhibition		BACTEC	12.5 µg/mL	H37Rv	9%
NNC(=O)c1ccncc1	MIC90				19 strains	0.1 µg/mL
O=C1C=C(Nc2ccc(Cl)cc2)c2ccccc2C1=O	MIC		resazurin		H37Rv	≤0.1 µg/mL
CC1(C)[C@H](C(=O)O)N2C(=O)C[C@H]2S1(=O)=O	MIC				Isolate 5	>16 µg/mL

Repeating the final 11 entries:

SMILES | endpoint | mutations | read by | dose | strain | value
Cc1ccc(C2=NNC(=O)/C(=C\c3ccc(O)cc3)C2)cc1 | MIC |  | resazurin |  | H37Rv | 25 µg/mL
O=C(O)c1cn2c(n1)CN(c1cc3c(=O)c(C(=O)O)c4n(c3cc1[N+](=O)[O-])CS4)CC2 | MIC |  | agar |  | H37Rv | 0.2 µM
Clc1ccc(Oc2ccc(Nc3ncnc4ccccc34)cc2)cc1Cl | MIC50 |  | luminescence |  | H37Rv | >20 µM
O=C(n1c(=O)n(-c2ccc(Cl)cc2)c(=O)n1C(=O)C(Cl)(Cl)Cl)C(Cl)(Cl)Cl | MIC bound |  | BACTEC |  | H37Rv | >12.5 µg/mL
COc1ccc2c(NCCc3ccc(OC(F)(F)F)cc3)ncnc2c1 | MIC50 |  | luminescence |  | H37Rv | >20 µM
COc1ccc(/C=C2\N=C(c3ccccc3)OC2=O)c(OC)c1C | MIC |  | BACTEC |  | H37Rv | >12.5 µg/mL
COc1ccc2c(Nc3ccc(Oc4ccc(C(F)(F)F)cc4)cc3)ncnc2c1 | MIC50 |  | luminescence |  | H37Rv | >20 µM
CCN(CC)CCNC(=O)c1nn(C)c(=S)[nH]c1=O | inhibition |  | BACTEC | 12.5 µg/mL | H37Rv | 9%
NNC(=O)c1ccncc1 | MIC90 |  |  |  | 19 strains | 0.1 µg/mL
O=C1C=C(Nc2ccc(Cl)cc2)c2ccccc2C1=O | MIC |  | resazurin |  | H37Rv | ≤0.1 µg/mL
CC1(C)[C@H](C(=O)O)N2C(=O)C[C@H]2S1(=O)=O | MIC |  |  |  | Isolate 5 | >16 µg/mL